Measurements reported in PubChem BioAssay AID1259414 (Drosophila RNAi Screening Center, 2018)

- Screen: 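Fly genes that alter Wolbachia amount inside host cells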 (primary screen)
- Cell system: Drosophila JW18 cells infected with Wolbachia
- Reagents: long dsRNA against Drosophila genes, 0.25 µg dsRNA per well of a 384-well plate
- Duration: 5 days
- Challenge: cells persistently infected with Wolbachia before knock-down; no added drug
- Read-out: 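Imaged fluorescence in situ signal for Wolbachia 23S rRNA per DAPI-counted host cell, given as a robust z-score within each plate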
- Scale: Wolbachia per cell robust z: higher = more Wolbachia per host cell than the plate typical
- Call rule: 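Hit when robust z is 1.5 or more, or -1.5 or less, in at least two of three replicates; excludes dsRNAs with several or no targets, genes not expressed in JW18 and well A1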
The screen tested about 24,000 reagents; this is a random part of those that have a named target and a result. Over the whole deposit, about 1,210 (5%) were called active. 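Inactive calls also include excluded dsRNAs with several or no targets, genes unexpressed in JW18, and well A1, regardless of score.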 The numbers tell different reagents against one gene apart. A plus sign joins genes that one reagent is predicted to hit.

gene | reagent no. | Wolbachia per cell robust z, rep 1 | Wolbachia per cell robust z, rep 2 | Wolbachia per cell robust z, rep 3 | Call
CG8281 (GeneID 38880) | 1 | 0.0158 | -0.462 | -2.52 | inactive
CG12519 (GeneID 40114) | 1 | -1.05 | -0.589 | -1.31 | inactive
ort (GeneID 45910) | 1 | -0.447 | -0.354 | 0.247 | inactive
ort (GeneID 45910) | 2 | 1.28 | -0.524 | 1.46 | inactive
Cp19 (GeneID 39000) | 1 | -0.94 | -0.273 | 0.943 | inactive
Cp19 (GeneID 39000) | 2 | -0.229 | 0.305 | 0.408 | inactive
Alg13 (GeneID 43443) | 1 | -0.901 | -0.288 | 0.728 | inactive
Alg13 (GeneID 43443) | 2 | -0.973 | -0.63 | -0.278 | inactive
Rcd2 (GeneID 40283) | 1 | -0.628 | 0.0346 | -0.101 | inactive
CG5116 (GeneID 43081) | 1 | 0.839 | -1.64 | 0.806 | inactive
Jhbp16 (GeneID 42552) | 1 | 0.78 | 0.775 | 0.971 | inactive
snsl (GeneID 33696) | 1 | -0.163 | -0.501 | -1.19 | inactive
snsl (GeneID 33696) | 2 | -0.771 | -1.15 | 0.277 | inactive
RasGAP1 (GeneID 39158) | 1 | -2.83 | -4.86 | -1.42 | active
CG43326 + CG43325 | 1 | 1.11 | 1.01 | -5.25 | inactive
CG43131 (GeneID 12798230) | 1 | 0.208 | -1.67 | -0.969 | inactive
Sfp87B (GeneID 8674076) | 1 | -0.024 | 0.927 | -0.505 | inactive
cGlr2 (GeneID 246606) | 1 | -1.78 | -0.81 | -2.23 | active
dao (GeneID 34891) | 1 | 0.72 | 0.78 | 0.0275 | inactive
dao (GeneID 34891) | 2 | 0.445 | 0.479 | 0.312 | inactive
CG17078 (GeneID 33195) | 1 | -2.3 | 0.289 | 0.674 | inactive
CG17078 (GeneID 33195) | 2 | -0.308 | -0.995 | -0.108 | inactive
CG18731 (GeneID 59246) | 1 | -0.182 | 0.66 | 1.27 | inactive
NetB (GeneID 32400) | 1 | -0.209 | -0.172 | -0.139 | inactive
NetB (GeneID 32400) | 2 | -0.108 | -0.41 | 0.367 | inactive
Dpm3 (GeneID 3885575) | 1 | 0.309 | -0.983 | -1.43 | inactive

Not a retest: 4 of the entries above.
gene | reagent no. | Wolbachia per cell robust z, rep 1 | Wolbachia per cell robust z, rep 2 | Wolbachia per cell robust z, rep 3 | Call
CG8281 (GeneID 38880) | 1 | 0.0158 | -0.462 | -2.52 | inactive
CG12519 (GeneID 40114) | 1 | -1.05 | -0.589 | -1.31 | inactive
ort (GeneID 45910) | 1 | -0.447 | -0.354 | 0.247 | inactive
ort (GeneID 45910) | 2 | 1.28 | -0.524 | 1.46 | inactive

Next records follow:
gene | reagent no. | Wolbachia per cell robust z, rep 1 | Wolbachia per cell robust z, rep 2 | Wolbachia per cell robust z, rep 3 | Call
MED28 (GeneID 43079) | 1 | 0.0978 | -2.41 | -0.101 | inactive
CG1146 (GeneID 38313) | 1 | 0.0835 | 0.357 | -0.771 | inactive
CG1146 (GeneID 38313) | 2 | 0.89 | 0.502 | 0.134 | inactive
CG33098 (GeneID 326253) | 1 | -0.977 | -1.03 | -1.09 | inactive
CG42837 + CG44242 + Lipt1 | 1 | -2.31 | 1.04 | -0.0994 | inactive
lncRNA:CR42836 (GeneID 10178865) | 1 | -1.53 | -2.2 | -2.25 | inactive
KrT95D (GeneID 42843) | 1 | -11.7 | 0.609 | 2.71 | inactive
KrT95D (GeneID 42843) | 2 | 1.13 | 1.04 | 0.25 | inactive
asRNA:CR42547 + CG15674 | 1 | 0.152 | -0.538 | -0.585 | inactive
GatB (GeneID 42861) | 1 | -0.743 | -1.04 | -0.101 | inactive
GatB (GeneID 42861) | 2 | 0.343 | -0.22 | -1.43 | inactive
Fdx1 (GeneID 39070) | 1 | -0.0389 | -1.13 | -0.337 | inactive
Fdx1 (GeneID 39070) | 2 | 0.377 | -0.606 | 0.303 | inactive
Pfdn4 (GeneID 38615) | 1 | 0.00431 | -1.37 | -1.64 | inactive
Pfdn4 (GeneID 38615) | 2 | -2.1 | 0.718 | 0.111 | inactive
lncRNA:CR32368 (GeneID 317997) | 1 | 1.12 | -0.00913 | -7.29 | inactive
lncRNA:CR32368 (GeneID 317997) | 2 | -0.155 | 0.611 | 0.627 | inactive
eater (GeneID 43262) | 1 | 0.089 | -0.712 | -0.65 | inactive
eater (GeneID 43262) | 2 | -0.131 | -0.0762 | 0.0769 | inactive
eater (GeneID 43262) | 3 | -2.81 | 0.185 | 1.26 | inactive
BobA (GeneID 50281) | 1 | -1.42 | -1.32 | 0.765 | inactive
BobA (GeneID 50281) | 2 | 0.301 | -0.397 | 0.358 | inactive
CG33791 + CG18170 | 1 | -3.45 | -2.57 | -0.892 | inactive
Ude (GeneID 42953) | 1 | 0.353 | -3.31 | -1.54 | active
PolH (GeneID 40438) | 1 | -2.1 | -1.35 | 0.683 | inactive
CR30029 (GeneID 5740197) | 1 | -1.05 | 0.401 | -0.483 | inactive
dpr2 (GeneID 3346227) | 1 | -0.283 | 0.368 | -0.561 | inactive
dpr2 (GeneID 3346227) | 2 | -0.718 | -0.391 | -0.769 | inactive
lncRNA:CR42696 (GeneID 19836174) | 1 | -0.131 | 0.00885 | 0.223 | inactive
CG13048 (GeneID 39789) | 1 | 0.664 | 0.709 | -0.294 | inactive
CG13048 (GeneID 39789) | 2 | -0.713 | -0.607 | -0.0918 | inactive
SP2353 (GeneID 36771) | 1 | 0.287 | -0.459 | -0.63 | inactive
SP2353 (GeneID 36771) | 2 | 0.722 | 0.594 | 0.821 | inactive
Smug (GeneID 42078) | 1 | 0.333 | -0.359 | 0.766 | inactive
P32 (GeneID 37006) | 1 | -0.806 | -3.15 | 0.825 | inactive
CG15263 (GeneID 34898) | 1 | -1.32 | -0.335 | 0.0455 | inactive
CG15263 (GeneID 34898) | 2 | 0.297 | 0.428 | 0.108 | inactive
alpha-Est2 (GeneID 40908) | 1 | -0.332 | 0.67 | 1.04 | inactive
Csl4 (GeneID 34548) | 1 | -0.298 | -0.233 | 0.587 | inactive
Csl4 (GeneID 34548) | 2 | -3.25 | -0.649 | 0.0865 | inactive
slo (GeneID 42940) | 1 | 0.204 | 0.292 | -0.802 | inactive
slo (GeneID 42940) | 2 | -5.15 | -3.15 | -0.716 | inactive
